From publication PMC9528872 (Nature Communications, 2022)

Molecular target: SARS-CoV-2 receptor binding domain (RBD), biotinylated (SARS-CoV-2, Wuhan-type, UniProt P0DTC2, biotin (BirA, on the Avi tag))
Assay: BLI
Details: both partners purified

B1: Ab 12 Fab (Fab, V domains shown)
VH: EVQLVESGPGVVSPSATLFLTCSVSGGSIRTHSWNWIRQPPGKPLEWIGFIHHSGATNKNPSLKSRVTISSDTSKNEFSLTLTSVTAADTAVYYCARGPGILSYWSRGTLVTVSS
VL: LPVLTQPPSASGTPGQRVTISCSGSSSNIGSNTVNWYQQLPGTAPKLLIYSNNQRPSGVPDRFSGSKSGTSASLAISGLQSEDEADYYCAAWDDSLNVHYVFGSGTKVTVL
Kd: 8.52 nM | koff: 0.00289 s⁻¹ | kon: 339000 M⁻¹ s⁻¹
